For some assays here: Where a protein sequence is shown, tags need not be part of it. For some assays here: The exact form of at least one protein or probe is not confirmed.
Legend:
[1] = biological target: T1, CodY (Clostridium tetani CN655) (UniProt Q895L3); test: EMSA; details: recombinant protein; residues 1-258; protein details: N-terminal His6 (pET28a); label: 5'-biotin on both primers; probe letters rebuilt from the primers and the genome
T1 sequence (looked up): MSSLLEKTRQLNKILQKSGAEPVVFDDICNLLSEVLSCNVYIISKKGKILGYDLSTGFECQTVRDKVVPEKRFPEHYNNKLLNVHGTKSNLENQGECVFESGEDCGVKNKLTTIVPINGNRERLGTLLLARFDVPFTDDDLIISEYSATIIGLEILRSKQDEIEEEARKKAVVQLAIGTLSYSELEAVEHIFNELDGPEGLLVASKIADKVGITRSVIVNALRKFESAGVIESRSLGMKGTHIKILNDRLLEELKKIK

[2] = biological target: TetR (alternative sigma factor) (Clostridium tetani CN655) (UniProt Q899V5); test: EMSA; details: recombinant protein; protein details: N-terminal His6 (pET28a); label: 5'-biotin on both primers; probe letters rebuilt from the primers and the genome

“GGTTTTAGCATTAAAAAAATTAGAACCTATAGTAAATAAATTAATTAATATATAGTTTTTATAATTTAATTATGAATAATATTCTTAAGATAAAAAGTAAATTTTTAAAAATTTAAATTTTCAGTTTACAAAAAATAACCTGATTATGTTATATGTAATTGTAAAAAACATATAAAAAATCAGAAAAATTTAGGAGGTATATTATTAATGGATTAAATAATAATTTTTTAATTTACTTTTGATTAATAAATATTAAATGTTTATTTTAATTAGGAGATGATACGTATGCCAATAACCATAAATAATTTTAGATATAGTGATCCTGTTAATAATGATACAATTATTATGATGGAGCCACC (double strand) [Ptent]”: binds [1]; binds [2].
